The values below come from US20240109955A1 (published 2024).

Assay in all cases: cell-based or functional assay
The target of experiment [1] is SARS-CoV-2 Omicron BQ.1.1 spike protein (SARS-CoV-2, UniProt P0DTC2 14-1273).
Experiment [2] addresses SARS-CoV-2 Omicron XBB spike protein (SARS-CoV-2, UniProt P0DTC2 14-1273).
Experiment [3] concerns the target SARS-CoV-2 spike (S) protein, Omicron sublineage BA.4/5 (SARS-CoV-2).
Experiment [4] concerns the target SARS-CoV-2 spike (S) protein, Omicron sublineage BQ.1 (SARS-CoV-2).
The target in experiment [5] is SARS-CoV-2 spike (S) protein, Omicron sublineage BQ.1.1 (SARS-CoV-2).
For experiment [6], the target named is SARS-CoV-2 spike (S) protein, Omicron sublineage BA.2.75.2 (SARS-CoV-2).
In experiment [7] the target is SARS-CoV-2 spike (S) protein, Omicron sublineage XBB (SARS-CoV-2).

B1: MX1019 (antibody)
chain: EIVMTQSPAILSVSPGERATLSCRASQSVAINLAWYQQKPGQAPRLLIYAASSRATGIPGRFSGSGSETNFTLTISSLQSGDFAVYYCQQYITWPPSYTFGQGTKLEIKGGGGSGGSGSGGGGSASGSGEVQLVESGGALIQPGGSLRLSCAASGIIVSANYMSWVRQAPGKGLEWVSVIYSGGSTFYADSVKGRFTISRDNSKNTLYLEMNSLRAEDTAVYYCARDAPILGVSDWGQGTLVTVSSASGGSGDKTHTCPPCPAPELLGGPSVFLFPPKPKDTLMISRTPEVTCVVVDVSHEDPEVKFNWYVDGVEVHNAKTKPREEQYNSYVVSVLTVLHQDWLNGKEYKCKVSNKALPAPIEKTISKAKGQPREPQVYTLPPSRDELTKNQVSLTCLVKGFYPSDIAVEWESNGQPENNYKTTPPVLDSDGSFFKKLTVDKSRWQQGNVFSCSVLHEALHSHYTQKSLSLSPG
In the case of B1, in experiment [1], the “IC50, pseudovirus neutralization” value is 14.2 ng/mL and the “IC80, pseudovirus neutralization” value turned out to be 24.5 ng/mL. Further, in experiment [2], the “IC50, pseudovirus neutralization” value came out at 13.1 ng/mL and the “IC80, pseudovirus neutralization” value was found to be 20.6 ng/mL.

B2: MX1067 (trispecific antibody)
chain 1: EIVMTQSPAILSVSPGERATLSCRASQSVAINLAWYQQKPGQAPRLLIYAASSRATGIPGRFSGSGSETNFTLTISSLQSGDFAVYYCQQYITWPPSYTFGQGTKLEIKGGSSGQTVVTQEPSFSVSPGGTVTLTCGLSSGSVSTAYFPSWYQQTPGQAPRTLIYGTNTRSSGVPDRFSGSILGNKAALTITGAQADDESDYYCVLYMGRGIVVFGGGTKLTVLGGGGSGGSGSGGGGSASGSGQVQLVESGGGVVQPGRSLRLSCAASGFTLSSYGMHWVRQAPGKGLEWVAVISYDGSNKYYVDSVKGRFTISRDNSKNTLYLQMNSLRAEDTAVYYCRWAYWELLPDYYYGMDVWGQGTTVTVSSGGSSGEVQLVESGGALIQPGGSLRLSCAASGIIVSANYMSWVRQAPGKGLEWVSVIYSGGSTFYADSVKGRFTISRDNSKNTLYLEMNSLRAEDTAVYYCARDAPILGVSDWGQGTLVTVSSASGGSGDKTHTCPPCPAPELLGGPSVFLFPPKPKDTLMISRTPEVTCVVVDVSHEDPEVKFNWYVDGVEVHNAKTKPREEQYNSYVVSVLTVLHQDWLNGKEYKCKVSNKALPAPIEKTISKAKGQPREPQVYTLPPCRDELTKNQVSLWCLVKGFYPSDIAVEWESNGQPENNYKTTPPVLDSDGSFFKKLTVDKSRWQQGNVFSCSVLHEALHSHYTQKSLSLSPG
chain 2: QTVVTQEPSFSVSPGGTVTLTCGLSSGSVSTAYFPSWYQQTPGQAPRTLIYGTNTRSSGVPDRFSGSILGNKAALTITGAQADDESDYYCVLYMGRGIVVFGGGTKLTVLGGSSGDTVMTQSPLSLPVTPGEPASISCRSSQSLLNSNGYNYLDWYVQKPGQSPQLLIYLGSNRASGVPDRFSGSGSGTDFTLKISRVEAEDVGVYYCMQPLQTPLFTFGPGTKVEIKGGGGSGGSGSGGGGSASGSGQVTLRESGPALVKPTQTLTLTCTFSGFSLSTRGVCVSWIRQPPGKALEWLAFIDWDDDKYYNTSLKTRLTISKDTSKNQVVLTMTNVHPVDTATYYCARISSHHGSSWCTTFDYWGQGALVTVSAGGSSGQVQLVESGGGVVQPGRSLRLSCAASGFTLSSYGMHWVRQAPGKGLEWVAVISYDGSNKYYVDSVKGRFTISRDNSKNTLYLQMNSLRAEDTAVYYCRWAYWELLPDYYYGMDVWGQGTTVTVSSASGGSGDKTHTCPPCPAPELLGGPSVFLFPPKPKDTLMISRTPEVTCVVVDVSHEDPEVKFNWYVDGVEVHNAKTKPREEQYNSYVVSVLTVLHQDWLNGKEYKCKVSNKALPAPIEKTISKAKGQPREPQVCTLPPSRDELTKNQVSLSCAVKGFYPSDIAVEWESNGQPENNYKTTPPVLDSDGSFFLVSKLTVDKSRWQQGNVFSCSVLHEALHSHYTQKSLSLSPG
With B2, the “IC50, pseudovirus neutralization” value came to 15.8 ng/mL in experiment [3]; 64.5 ng/mL in experiment [4]; 36 ng/mL in experiment [5]; 4.34 ng/mL in experiment [6]; 26.3 ng/mL in experiment [7]. Also, the “IC80, pseudovirus neutralization” value in experiment [3] amounted to 53.1 ng/mL; in experiment [4], 73.2 ng/mL; in experiment [5], 79.6 ng/mL; in experiment [6] it was 10.7 ng/mL; in experiment [7], 74.1 ng/mL.

B3: MX1068 (trispecific antibody)
chain 1: EIVMTQSPAILSVSPGERATLSCRASQSVAINLAWYQQKPGQAPRLLIYAASSRATGIPGRFSGSGSETNFTLTISSLQSGDFAVYYCQQYITWPPSYTFGQGTKLEIKGGSSGQTVVTQEPSFSVSPGGTVTLTCGLSSGSVSTAYFPSWYQQTPGQAPRTLIYGTNTRSSGVPDRFSGSILGNKAALTITGAQADDESDYYCVLYMGRGIVVFGGGTKLTVLGGGGSGGSGSGGGGSASGSGQVQLVESGGGVVQPGRSLRLSCAASGFTLSSYGMHWVRQAPGKGLEWVAVISYDGSNKYYVDSVKGRFTISRDNSKNTLYLQMNSLRAEDTAVYYCRWAYWELLPDYYYGMDVWGQGTTVTVSSGGSSGEVQLVESGGALIQPGGSLRLSCAASGIIVSANYMSWVRQAPGKGLEWVSVIYSGGSTFYADSVKGRFTISRDNSKNTLYLEMNSLRAEDTAVYYCARDAPILGVSDWGQGTLVTVSSASGGSGDKTHTCPPCPAPELLGGPSVFLFPPKPKDTLMISRTPEVTCVVVDVSHEDPEVKFNWYVDGVEVHNAKTKPREEQYNSYVVSVLTVLHQDWLNGKEYKCKVSNKALPAPIEKTISKAKGQPREPQVYTLPPCRDELTKNQVSLWCLVKGFYPSDIAVEWESNGQPENNYKTTPPVLDSDGSFFKKLTVDKSRWQQGNVFSCSVLHEALHSHYTQKSLSLSPG
chain 2: DTVMTQSPLSLPVTPGEPASISCRSSQSLLNSNGYNYLDWYVQKPGQSPQLLIYLGSNRASGVPDRFSGSGSGTDFTLKISRVEAEDVGVYYCMQPLQTPLFTFGPGTKVEIKGGSSGQTVVTQEPSFSVSPGGTVTLTCGLSSGSVSTAYFPSWYQQTPGQAPRTLIYGTNTRSSGVPDRFSGSILGNKAALTITGAQADDESDYYCVLYMGRGIVVFGGGTKLTVLGGGGSGGSGSGGGGSASGSGQVQLVESGGGVVQPGRSLRLSCAASGFTLSSYGMHWVRQAPGKGLEWVAVISYDGSNKYYVDSVKGRFTISRDNSKNTLYLQMNSLRAEDTAVYYCRWAYWELLPDYYYGMDVWGQGTTVTVSSGGSSGQVTLRESGPALVKPTQTLTLTCTFSGFSLSTRGVCVSWIRQPPGKALEWLAFIDWDDDKYYNTSLKTRLTISKDTSKNQVVLTMTNVHPVDTATYYCARISSHHGSSWCTTFDYWGQGALVTVSAASGGSGDKTHTCPPCPAPELLGGPSVFLFPPKPKDTLMISRTPEVTCVVVDVSHEDPEVKFNWYVDGVEVHNAKTKPREEQYNSYVVSVLTVLHQDWLNGKEYKCKVSNKALPAPIEKTISKAKGQPREPQVCTLPPSRDELTKNQVSLSCAVKGFYPSDIAVEWESNGQPENNYKTTPPVLDSDGSFFLVSKLTVDKSRWQQGNVFSCSVLHEALHSHYTQKSLSLSPG
B3: the “IC50, pseudovirus neutralization” value in experiment [3] was 11.3 ng/mL; in experiment [4], 37.9 ng/mL; in experiment [5], 64 ng/mL; in experiment [6] it was 7.6 ng/mL; in experiment [7] it was 15.2 ng/mL. Further, the “IC80, pseudovirus neutralization” value in experiment [3] came to 29.5 ng/mL; in experiment [4], 116 ng/mL; in experiment [5], 226 ng/mL; in experiment [6], 25 ng/mL; in experiment [7], 46.9 ng/mL.

B4: MX1026 (antibody)
chain: DTVMTQSPLSLPVTPGEPASISCRSSQSLLNSNGYNYLDWYVQKPGQSPQLLIYLGSNRASGVPDRFSGSGSGTDFTLKISRVEAEDVGVYYCMQPLQTPLFTFGPGTKVEIKGGGGSGGSGSGGGGSASGSGQVTLRESGPALVKPTQTLTLTCTFSGFSLSTRGVCVSWIRQPPGKALEWLAFIDWDDDKYYNTSLKTRLTISKDTSKNQVVLTMTNVHPVDTATYYCARISSHHGSSWCTTFDYWGQGALVTVSAASGGSGDKTHTCPPCPAPELLGGPSVFLFPPKPKDTLMISRTPEVTCVVVDVSHEDPEVKFNWYVDGVEVHNAKTKPREEQYNSYVVSVLTVLHQDWLNGKEYKCKVSNKALPAPIEKTISKAKGQPREPQVYTLPPSRDELTKNQVSLTCLVKGFYPSDIAVEWESNGQPENNYKTTPPVLDSDGSFFKKLTVDKSRWQQGNVFSCSVLHEALHSHYTQKSLSLSPG
As to B4, in experiment [1], the “IC50, pseudovirus neutralization” value was 963 ng/mL and the “IC80, pseudovirus neutralization” value worked out at 3940 ng/mL. Besides, in experiment [2], the “IC50, pseudovirus neutralization” value worked out at 1250 ng/mL and the “IC80, pseudovirus neutralization” value was 4540 ng/mL.

B5: MX1025 (antibody)
chain: EIVLTQSPGTLSLSPGETATLSCRASQSFSSDLAWYQQKPGQAPRLLIYGASSRATGIPDRFSGSGSGTDFTLTISRLEPADFAVYYCQQYGSSPPVTFGGGTKVEIKGGGGSGGSGSGGGGSASGSGEVQLVESGGGLIQPGGSLRLSCAASGVIVSYNYMNWVRQAPGKGLEWVSVIYSGGSTFYADSVRGRFTISRDNSKNTLYLQMNSLRAEDTAVYYCARDLGPAGAFDIWGLGTMVTVSSASGGSGDKTHTCPPCPAPELLGGPSVFLFPPKPKDTLMISRTPEVTCVVVDVSHEDPEVKFNWYVDGVEVHNAKTKPREEQYNSYVVSVLTVLHQDWLNGKEYKCKVSNKALPAPIEKTISKAKGQPREPQVYTLPPSRDELTKNQVSLTCLVKGFYPSDIAVEWESNGQPENNYKTTPPVLDSDGSFFKKLTVDKSRWQQGNVFSCSVLHEALHSHYTQKSLSLSPG
As to B5, in experiment [1], the “IC50, pseudovirus neutralization” value worked out at 30.3 ng/mL and the “IC80, pseudovirus neutralization” value was 35 ng/mL. Further, the “IC50, pseudovirus neutralization” value in experiment [2] stood at 32.8 ng/mL.
